Pooled drug test results. Numbers come from NIAID ChemDB, via PubChem.

All rows: whole-cell or culture tests; organism: HIV-1; cell line: MT-4; method: MTT; measure: EC50

Conditions beyond the fields shown may differ between rows. ECn: concentration that inhibits the pathogen or its effect by n%. Blank or dashed fields: not listed here.

structure | mutations | strain | value
CCC(O)(c1ccccc1C)c1c(C)c(=O)[nH]c(=O)n1COCc1ccccc1 |  | IIIB | >163 µM
CCc1c(Cc2cc(C)cc(C)c2)n(COCC#Cc2cccc(C#N)c2)c(=O)[nH]c1=O | Y181C | IIIB | 5 µM
Cc1cc(-c2ccc(C#N)cc2)cc(C)c1Oc1ccnc(S(=O)(=O)CC(=O)Nc2ccc(Br)cc2)n1 |  | IIIB | 0.007 µM
CCc1c(Cc2cc(OC)cc(OC)c2)n(COCCOc2ccccc2)c(=O)[nH]c1=O | Efavirenz-resistant (K103R + V179D + P225H) | IIIB | >41 µM
Cc1cc(C)cc(S(=O)(=O)c2c(C(=O)NS(=O)(=O)c3ccc(F)cc3)[nH]c3ccc(Cl)cc23)c1 |  | IIIB | 3.23 µM
CC(C)c1c(C(C)c2ccc(F)cc2)n(COCc2ccccc2)c(=O)[nH]c1=O | Y181C | IIIB | >33.73 µM
Cc1nc2c(c(C)c(C)n2Cc2ccnc(F)c2)c(-c2ccc(Cl)cc2)c1[C@H](OC(C)(C)C)C(=O)O |  | IIIB | 0.0145 µM
Cc1cc(C)cc(Cc2c(C(C)C)c(=O)[nH]c(=O)n2COCCOc2ccccc2)c1 | Y181C | N119 | 1.85 µM
CCCS(=O)(=O)NC(=O)c1[nH]c2ccc(Cl)cc2c1S(=O)(=O)c1cc(C)cc(C)c1 | L100I |  | 1.41 µM
CCOCn1c(Cc2cc(OC)cc(OC)c2)c(CC)c(=O)[nH]c1=O | Efavirenz-resistant (K103R + V179D + P225H) | IIIB | >100 µM
N#Cc1ccc(Nc2nc(Oc3ccc(-c4ccc(C#N)cc4)c(F)c3F)c3sccc3n2)cc1 | Y188L | IIIB | 0.2286 µM
CCc1c(Cc2cc(C)cc(C)c2)n(COCC#Cc2ccc(NC(=O)CBr)cc2)c(=O)[nH]c1=O | EFV-resistant (K103R V179D P225H) | IIIB | 7 µM
Cc1nc2c(c(C)c(C)n2Cc2ccccc2)c(-c2ccc(Cl)cc2)c1C(OC(C)(C)C)C(=O)O |  | IIIB | 0.692 µM
Cc1cc(-c2ccc(C#N)cc2)ccc1Oc1nc(Nc2ccc(C#N)cc2)nc2ccsc12 |  | IIIB | 0.0545 µM
Cc1cc(/C=C/C#N)cc(C)c1Oc1nc(NC2CCN(Cc3ccc(F)cc3)CC2)nc2ccsc12 | NNRTI-resistant (RT E138K) | IIIB | 0.0349 µM
Cc1nc2c(c(C)c(C)n2Cc2ccncc2)c(-c2ccc(Cl)cc2)c1C(OC(C)(C)C)C(=O)O |  | IIIB | 0.671 µM
CCc1c(Cc2ccccc2C)n(COCC#Cc2ccc(NC(=O)C(F)(F)F)cc2)c(=O)[nH]c1=O | K103N + Y181C | IIIB | >45 µM
C=C(c1cc(OC)cc(OC)c1)c1c(C)c(=O)[nH]c(=O)n1COCc1ccccc1 |  | IIIB | 5.27 µM
CCc1c(Cc2cc(C)cc(C)c2)n(COCC#Cc2cccs2)c(=O)[nH]c1=O | EFV-resistant (K103R V179D P225H) | IIIB | 15 µM
Cc1cc(-c2ccc(C#N)cc2)cc(C)c1Oc1ccnc(S(=O)(=O)C(C)C(=O)Nc2ccc(C#N)cc2)n1 | Y181C | IIIB | 0.242 µM
Cc1cc(C#N)cc(C)c1Oc1nc(NC2CCN(Cc3ccc(S(N)(=O)=O)cc3)CC2F)nc2ccsc12 | NNRTI-resistant (RT Y181C) | IIIB | 0.03 µM
Cc1nc2c(c(C)c(C)n2CCN2CCCC2=O)c(-c2ccc(Cl)cc2)c1[C@H](OC(C)(C)C)C(=O)O |  | IIIB | 0.0253 µM
Cc1cc(C#N)cc(C)c1Oc1nc(NC2CCC(NCc3ccc(F)cc3)CC2)nc2ccsc12 | NNRTI-resistant (RT K103N) | IIIB | 0.883 µM
Cc1nc2c(c(C)c(C)n2Cc2cncnc2)c(-c2ccc(Cl)cc2)c1[C@H](OC(C)(C)C)C(=O)O |  | IIIB | 0.00548 µM
C=C(c1ccccc1)c1c(C)c(=O)[nH]c(=O)n1COCc1ccccc1 | E138K | IIIB | 37.96 µM
CCOCn1c(Cc2ccccc2)c(C(C)C)c(=O)[nH]c1=O | K103N + Y181C | A17 | 56 µM
CCc1c(Cc2cc(C)cc(C)c2)n(COCC#Cc2ccc([N+](=O)[O-])cc2)c(=O)[nH]c1=O | K103N + Y181C | IIIB | >7 µM
Cc1nc2c(c(C)c(C)n2CC2CC2)c(-c2cc(F)c3c(c2C)CCCO3)c1[C@H](OC(C)(C)C)C(=O)O |  | IIIB | 0.00668 µM
COC(=O)c1ccc(CN2CCC(Nc3nc(Oc4c(C)cc(C#N)cc4C)c4ccsc4n3)CC2)cc1 | NNRTI-resistant (RT F227L V106A) | IIIB | 0.263 µM
Cc1cc(Oc2nc(Nc3ccc(C#N)cc3)nc3ccsc23)ccc1-c1ccc(C#N)cc1 |  | IIIB | 0.0588 µM
Cc1cc(-c2ccc(C#N)cc2)cc(C)c1Oc1ccnc(S(=O)(=O)C(C)C(=O)Nc2ccc(Cl)cc2)n1 | Y181C | IIIB | 0.146 µM
Cc1ccc(C(C)c2c(C(C)C)c(=O)[nH]c(=O)n2COCc2ccccc2)cc1 |  | IIIB | 10.7 µM
Cc1cc(C)cc(S(=O)(=O)c2c(C(=O)NS(=O)(=O)c3ccc(F)cc3F)[nH]c3ccc(Cl)cc23)c1 |  | IIIB | 1.73 µM
Cc1ccccc1C(C)c1c(C)c(=O)[nH]c(=O)n1COCc1ccccc1 | E138K | IIIB | 71.63 µM
CCc1c(Cc2cc(C)cc(C)c2)n(COCC#Cc2ccc(NC(=O)C(F)(F)F)cc2)c(=O)[nH]c1=O | EFV-resistant (K103R V179D P225H) | IIIB | 9 µM
Cc1cc(/C=C/C#N)cc(C)c1Oc1nc(NC2CCN(Cc3ccccn3)CC2)nc2ccsc12 | NNRTI-resistant (RT F227L V106A) | IIIB | 0.0267 µM
Cc1cc(-c2ccc(C#N)cc2)cc(Cl)c1Oc1nc(Nc2ccc(C#N)cc2)nc2ccsc12 | E138K | IIIB | 0.0527 µM
Cc1cc(C)cc(S(=O)(=O)c2c(C(=O)NCCn3ccc(=O)[nH]c3=O)[nH]c3ccc(Cl)cc23)c1 |  | IIIB | 0.0096 µM
Cc1cc(/C=C/C#N)cc(C)c1Oc1ccnc(S(=O)(=O)CC(=O)Nc2ccc(Cl)cc2)n1 | E138K | IIIB | 0.015 µM
Cc1cc(C)cc(S(=O)(=O)c2c(C(=O)NS(=O)(=O)c3ccccc3)[nH]c3ccc(Cl)cc23)c1 | E138K |  | 1.2 µM
Cc1c(C(C)(O)c2cccc3ccccc23)n(COCc2ccccc2)c(=O)[nH]c1=O |  | IIIB | >41.78 µM
Cc1cc(C)cc(S(=O)(=O)c2c(C(=O)NS(=O)(=O)C(F)(F)F)[nH]c3ccc(Cl)cc23)c1 | L100I |  | 10.02 µM
Cc1cc(/C=C/C#N)cc(C)c1Oc1nc(NC2CCN(Cc3ccccc3Br)CC2)nc2ccsc12 | NNRTI-resistant (RT Y181C) | IIIB | 0.123 µM
Cc1cc(-c2ccc(C#N)cc2)cc(C)c1Oc1ccnc(S(=O)(=O)CC(=O)Nc2ccc(F)cc2)n1 | F227L V106A | IIIB | 4.102 µM
CCc1c(Cc2ccccc2C)n(COCC#Cc2ccc(N)cc2)c(=O)[nH]c1=O | WT | IIIB | 0.07 µM

6 of the rows above, restated:

structure	mutations	strain	value
CCc1c(Cc2cc(C)cc(C)c2)n(COCC#Cc2ccc([N+](=O)[O-])cc2)c(=O)[nH]c1=O	K103N + Y181C	IIIB	>7 µM
C=C(c1ccccc1)c1c(C)c(=O)[nH]c(=O)n1COCc1ccccc1	E138K	IIIB	37.96 µM
COC(=O)c1ccc(CN2CCC(Nc3nc(Oc4c(C)cc(C#N)cc4C)c4ccsc4n3)CC2)cc1	NNRTI-resistant (RT F227L V106A)	IIIB	0.263 µM
C=C(c1cc(OC)cc(OC)c1)c1c(C)c(=O)[nH]c(=O)n1COCc1ccccc1		IIIB	5.27 µM
Cc1cc(C)cc(S(=O)(=O)c2c(C(=O)NS(=O)(=O)c3ccccc3)[nH]c3ccc(Cl)cc23)c1	E138K		1.2 µM
Cc1cc(C)cc(S(=O)(=O)c2c(C(=O)NS(=O)(=O)C(F)(F)F)[nH]c3ccc(Cl)cc23)c1	L100I		10.02 µM